# Assay results as given in IntAct's records for PubMed 24418540.
# Biological target: cul5_human CUL5 (UniProt Q93034)
row,Substance,effect of a mutation on the interaction
1,"Virion infectivity factor (Human immunodeficiency virus type 1 group M subtype B (isolate HXB2) (HIV-1)), P69723 W21A",disrupting interaction strength
2,"Virion infectivity factor (Human immunodeficiency virus type 1 group M subtype B (isolate HXB2) (HIV-1)), P69723 E88A;W89A",disrupting interaction strength
3,"Virion infectivity factor (Human immunodeficiency virus type 1 group M subtype B (isolate HXB2) (HIV-1)), P69723 W89A",disrupting interaction strength
4,"Virion infectivity factor (Human immunodeficiency virus type 1 group M subtype B (isolate HXB2) (HIV-1)), P69723 W38A",disrupting interaction strength
